In publication PMC9558617 (ACS infectious diseases, 2022):

Test system: NADPH
Assay: purified protein, by the assay type

Substance: MtbPanG (Rv3603c) (Mycobacterium tuberculosis H37Rv)
- Km: 2.3 ± 0.3 µM
